A mixed list of measured activities; the numbers were collected in NIAID ChemDB.

All rows: growth or infection tests; organism: Herpes simplex virus 1; endpoint: inhibition

Conditions beyond the fields shown may differ between rows.

structure,cell line,strain or isolate,read by,dose,value
NC(=S)N/N=C/c1ccncc1,VERO,PH,plaque count,40 µM,15%
CCOC(=O)C(C)(C)Oc1ccc(Cl)cc1,HeLa,TYLER,virus yield,800 µM,94%
COP(=O)(CC(=O)OC[C@H]1O[C@@H](n2cc(CCCl)c(=O)[nH]c2=O)C[C@@H]1O)OC,VERO,BRAND,cytopathic effect,6.8 µM,>25%
Oc1cc(O)c2c(c1)O[C@H](c1cc(O)c(O)c(O)c1)[C@H](O)C2,VERO,17 syn +,MTT,200 µM,59%
O=C(O)P(=O)(O)O,SIRC,90155,plaque count,100 µM,95%
CCOc1ccc(-n2c(O)c(N=O)c(=O)[nH]c2=O)cc1,VERO,Leningrad/248/88,cytopathic effect,100 µg/mL,30%
NNC(N)=O,VERO,PH,plaque count,40 µM,0%
O=Nc1c(O)n(-c2cccc(C(F)(F)F)c2)c(=O)[nH]c1=O,VERO,Leningrad/248/88,cytopathic effect,100 µg/mL,50%
COP(=O)(CC(=O)OC[C@H]1O[C@@H](n2cc(I)c(=O)[nH]c2=O)C[C@@H]1O)OC,VERO,BRAND,cytopathic effect,0.6 µM,>25%
CC1(C)S[C@@H]2[C@H](NC(=O)Cc3ccccc3)C(=O)N2[C@H]1C(=O)O,VERO,,plaque count,1000 µM,0%
O=C(O[C@@H]1Cc2c(O)cc(O)cc2O[C@@H]1c1cc(O)c(O)c(O)c1)c1cc(O)c(O)c(O)c1,VERO,17 syn +,MTT,20 µM,71%
CNc1nc2sc3c(c2c(=O)n1N)CCCC3,VERO,,plaque count,0.3 µg/mL,10%
O=C(OCc1ccccc1)P(=O)(O)OC[C@H]1O[C@@H](n2cc(CCCl)c(=O)[nH]c2=O)C[C@@H]1O,VERO,BRAND,cytopathic effect,20.5 µM,>25%
Nc1nc2c(ncn2COC(CO)CO)c(=O)[nH]1,VERO,,,5 µM,98%
Nn1c(Nc2ccccc2)nc2sc3c(c2c1=O)CCC3,VERO,,plaque count,0.3 µg/mL,80%
O=c1c(O)c(-c2ccc(O)c(O)c2)oc2cc(O)cc(O)c12,VERO,,,60 µg/mL,65%
CN1C(=O)C(=O)c2ccccc21,VERO,PH,plaque count,40 µM,0%
Nn1c(Nc2ccc(Cl)cc2)nc2sc3c(c2c1=O)CCC3,VERO,,plaque count,0.3 µg/mL,40%
CC(=O)N[C@H]1[C@@H](O[C@@H]2O[C@H](C[C@@H](O)[C@H]3O[C@@H](n4ccc(=O)[nH]c4=O)[C@H](O)[C@@H]3O)[C@H](O)[C@H](O)[C@H]2NC(=O)/C=C/CC(C)C)O[C@H](CO)[C@@H](O)[C@@H]1O,Chicken fibroblasts,,plaque count,0.5 µg/mL,99.89%
C[C@]12CC[C@H](O)CC1=CC[C@@H]1[C@@H]2CC[C@]2(C)C(=O)CC[C@@H]12,VERO,,antigen,180 µM,92.8%
O=C(O[C@@H]1Cc2c(O)cc(O)cc2O[C@@H]1c1ccc(O)c(O)c1)c1cc(O)c(O)c(O)c1,VERO,17 syn +,MTT,20 µM,81%
CCOC(=O)P(=O)(O)OC[C@H]1O[C@@H](n2cc(CCCl)c(=O)[nH]c2=O)C[C@@H]1O,VERO,TK-,cytopathic effect,70.3 µM,>25%
COC(=O)[C@H]1[C@H](O)[C@@H](C)[C@@H](O)[C@](C)(O)/C=C(\C)C2=C3C(=C(C)C(=O)c4c(O)c(c(C)c(OC(C)=O)c43)NC(=O)/C(C)=C/C=C\[C@@H](C)C(O)[C@@H](C)[C@H]1O)OCO2,CV,,plaque count,13 µM,0%
NC(=S)N=Nc1c(O)[nH]c2ccccc12,VERO,PH,plaque count,40 µM,75%
CCOC(=O)P(=O)(OC)OC[C@H]1O[C@@H](n2cc(I)c(=O)[nH]c2=O)C[C@@H]1O,VERO,TK-,cytopathic effect,19.8 µM,>25%
COc1c2c(cc3ccoc13)C(=O)[C@@]1(O)c3cc4c(cc3OC[C@H]1O2)OCO4,VERO,KOS,plaque count,50 µg/mL,56.6%
O=C(CP(=O)(O)O)O[C@H]1C[C@H](n2cc(CCCl)c(=O)[nH]c2=O)O[C@@H]1CO,VERO,TK-,cytopathic effect,242 µM,>25%
O=C1c2cc3ccoc3cc2O[C@@H]2COc3cc4c(cc3[C@H]12)OCO4,VERO,KOS,plaque count,50 µg/mL,15.4%
O=Nc1c(O)n(-c2ccc(Br)cc2)c(=O)[nH]c1=O,VERO,Leningrad/248/88,cytopathic effect,100 µg/mL,30%
O=C(O)P(=O)(O)O,GMK,,cytopathic effect,12.5 µg/mL,40.9%

Blank or dashed fields: not listed here. Inhibition is in % at the dose shown (toxicity tests: loss of growth or viability).